Results of unrelated studies side by side (data: NIAID ChemDB).

All rows: growth or infection tests; agent: HIV-1

Lines come from different laboratories, so protocols vary.

| smiles | strain | cells | changes | method | endpoint | value |
|---|---|---|---|---|---|---|
| CN[C@H](CC(C)C)C(=O)N[C@H]1C(=O)N[C@@H](CC(N)=O)C(=O)N[C@H]2C(=O)N[C@H]3C(=O)N[C@H](C(=O)N[C@H](C(=O)O)c4cc(O)cc(O)c4-c4cc3ccc4O)[C@H](O)c3ccc(c(Cl)c3)Oc3cc2cc(c3O[C@@H]2O[C@H](CO)[C@@H](O)[C@H](O)[C@H]2O[C@H]2C[C@](C)(N)[C@H](O)[C@H](C)O2)Oc2ccc(cc2Cl)[C@H]1O | - | CEM | - | syncytia | EC50 | 12 µM |
| C/C(=N\NC(=O)CN1c2c(-c3ccccc3)n[nH]c2-c2ccccc2S1(=O)=O)c1sc(N)nc1C | - | PBMC | - | RT activity | EC50 | 3.8 µM |
| Cc1cc(/C=C/C#N)cc(C)c1Nc1nc(Nc2ccc(C#N)cc2)ncc1C(O)OCc1cccnc1 | PSI (IIIB) | MT-4 | - | - | EC50 | 437 µM |
| CC(=O)O[C@H]1[C@H](OC(C)=O)[C@]2(C)O[C@@]3(COC(=O)C3)[C@@H](OC(=O)c3ccccc3)C[C@]2(C)[C@H]2CCC[C@]3(CO3)[C@]12C | IIIB | C8166 | - | MTT / ELISA | EC50 | 67.27 µg/mL |
| C=C1[C@H](CO)[C@H]1Cn1cnc2c(=O)[nH]c(N)nc21 | - | - | - | - | EC50 | >100 µM |
| Cc1ccc(S(=O)(=O)N2CCC3(CC2)OCCn2c3nc(C(=O)NCc3ccc(F)cc3-n3ncnc3C)c(O)c2=O)cc1 | NL4-3 | MT-2 | - | luciferase / reporter gene | EC50 | 0.001–0.01 µM |
| CC1(C)SCc2nc3ncccc3n21 | RF | CEM | - | cytopathic effect / XTT | EC50 | >386 µM |
| NS(=O)(=O)c1ccc(NC(=O)c2ccccc2COc2ccccc2C(=O)Nc2ccc(S(N)(=O)=O)cc2)cc1 | - | CEM | - | XTT | EC50 | >100 µM |
| NC[C@H]1O[C@@H](n2cnc3c(N)ncnc32)C[C@@H]1O | IIIB | MT-4 | - | cytopathic effect / trypan blue | EC50 | >500 µg/mL |
| O=P(O)(O)OP(=O)(O)OP(=O)(O)OP(=O)(O)O | IIIB | CEM | - | cytopathic effect / MTT | EC50 | >100 µg/mL |
| Cc1cc(/C=C/C#N)cc(C)c1Nc1nc(Nc2ccc(C#N)cc2)ncc1C(O)c1cccnc1 | PSI (IIIB) | MT-4 | - | - | EC50 | 135 µM |
| NC[C@@H]1C[C@H](N)[C@H](n2cnc3c(N)ncnc32)O1 | IIIB | MT-4 | - | cytopathic effect / trypan blue | EC50 | >500 µg/mL |
| COC(=O)N1CCC2(CC1)OCCn1c2nc(C(=O)NCc2ccc(F)cc2)c(O)c1=O | NL4-3 | MT-2 | - | luciferase / reporter gene | EC50 | 0.001–0.01 µM |
| Clc1cccc(Cl)c1C1SCc2nc3ncccc3n21 | RF | CEM | - | cytopathic effect / XTT | EC50 | 21 µM |
| CC(C)CCC[C@@H](C)[C@H]1CC[C@H]2[C@@H]3CC[C@H]4C[C@@H](NC(=O)C=C(c5cc(Cl)c(O)c(C(=O)O)c5)c5cc(Cl)c(O)c(C(=O)O)c5)CC[C@]4(C)[C@H]3CC[C@]12C | RF | CEM + CEM-SS | - | cytopathic effect / XTT | EC50 | 5.2 µM |
| Cc1ncnn1-c1cc(F)ccc1CNC(=O)c1nc2n(c(=O)c1O)CCOC21CCN(C(=O)OC(C)C)C1 | NL4-3 | MT-2 | - | luciferase / reporter gene | EC50 | 0.01–0.1 µM |
| C=C1[C@H](CO)[C@H]1Cn1cnc2c(Cl)nc(N)nc21 | - | - | - | - | EC50 | >100 µM |
| COc1c(Cl)cc(C(=CCC(=O)N[C@@H]2CC[C@@]3(C)[C@@H](CC[C@@H]4[C@@H]3CC[C@]3(C)[C@@H]([C@H](C)CCCC(C)C)CC[C@@H]43)C2)c2cc(Cl)c(OC)c(C(=O)O)c2)cc1C(=O)O | RF | CEM + CEM-SS | - | cytopathic effect / XTT | EC50 | >13.5 µM |
| CC(=O)O[C@H]1C[C@]2(C)O[C@]3(COC(=O)C3)[C@@H](OC(=O)c3ccccc3)[C@H](OC(C)=O)[C@]2(C)[C@H]2CCC[C@]3(CO3)[C@]12C | IIIB | C8166 | - | MTT / ELISA | EC50 | 77.53 µg/mL |
| COCCOC(O)c1cnc(Nc2ccc(C#N)cc2)nc1Nc1c(C)cc(/C=C/C#N)cc1C | Y181C | MT-4 | - | - | EC50 | 0.0138 µM |
| Brc1ccccc1C1SCc2nc3ncccc3n21 | RF | CEM | - | cytopathic effect / XTT | EC50 | >2.48 µM |
| Cc1ccc(S(=O)(=O)NC(CC(C)C)c2nnc(N(S(=O)(=O)c3ccc(Cl)cc3)S(=O)(=O)c3ccc(Cl)cc3)s2)cc1 | IIIB | MT-4 | - | MTT | EC50 | >4.09 µM |
| O=C(O)CNC(=O)c1ccccc1SSc1ccccc1C(=O)NCC(=O)O | - | CEM | - | XTT | EC50 | 51 µM |
| Cc1ccc(C)n1-c1ccc(C(=O)O)c(O)c1 | 94UG103 X4R5 CLADE A | PBMC + MT-2 | - | p24 | EC90 | 31.24 µM |
| Cc1cc(/C=C/C#N)cc(C)c1Oc1ccnc(Nc2ccc(CN3CCN(S(=O)(=O)N(C)C)CC3)cc2)n1 | - | MT-4 | F227L V106A | MTT | EC50 | >3.07 µM |
| C/C(=N\NC(=O)CN1c2c(-c3ccccc3)n[nH]c2-c2ccccc2S1(=O)=O)c1ccncc1 | - | PBMC | - | RT activity | EC90 | >100 µM |
| Cn1cc(NC(=O)Nc2cc(C(=O)Nc3cc(C(=O)Nc4ccc5cc(S(=O)(=O)O)cc(S(=O)(=O)O)c5c4)n(C)n3)n(C)c2)cc1C(=O)Nc1cc(C(=O)Nc2ccc3cc(S(=O)(=O)O)cc(S(=O)(=O)O)c3c2)n(C)n1 | RF | CEM + CEM-SS | - | cytopathic effect / XTT | EC50 | 6.5 µM |
| Cc1cc(/C=C/C#N)cc(C)c1Nc1nc(Nc2ccc(C#N)cc2)ncc1C(O)OCCO | K103N + Y181C | MT-4 | - | - | EC50 | 0.01995 µM |
| CN(C)CCCNC(=O)c1ccccc1SSc1ccccc1C(=O)NCCCN(C)C | - | CEM | - | XTT | EC50 | 8.8 µM |
| C[C@H]1C[C@@]2(OC1=O)O[C@@]13O[C@]4(CC[C@@]5(C)C(=O)[C@H](C)[C@@H]2[C@@H]15)C[C@@]12OC(=O)C[C@@H]1O[C@](C)(CO)[C@H]2CCC4=C3O | IIIB | C8166 | - | cytopathic effect | EC50 | 95.47 µg/mL |
| NS(=O)(=O)c1ccc(NC(=O)c2ccccc2[N+](=O)[O-])cc1 | - | CEM | - | XTT | EC50 | >100 µM |
| Cc1nnc(C(C)C)n1C1C[C@H]2CC[C@@H](C1)N2CC[C@H](NC(=O)C1CCC(F)(F)CC1)c1ccccc1 | NLAD8 | PBMC | - | luciferase | EC50 | 0.245 µM |
| Cc1cc(C(=O)O)ccc1N=Nc1c(S(=O)(=O)O)cc2cc(NC(=O)Nc3ccc4c(O)c(N=Nc5ccc(C(=O)O)cc5C)c(S(=O)(=O)O)cc4c3)ccc2c1O | RF | CEM + CEM-SS | - | cytopathic effect / XTT | EC50 | 2.5 µM |
| C/C(=N\NC(=O)CN1c2c(-c3ccccc3)n[nH]c2-c2ccccc2S1(=O)=O)c1ccc([N+](=O)[O-])s1 | - | PBMC | - | RT activity | EC90 | >100 µM |
| COc1cc(-c2ccc(N=Nc3ccc4c(S(=O)(=O)O)cc(S(=O)(=O)O)c(N)c4c3O)c(OC)c2)ccc1N=Nc1ccc2c(S(=O)(=O)O)cc(S(=O)(=O)O)c(N)c2c1O | A17 | CEM + CEM-SS | - | cytopathic effect / XTT | EC50 | 0.6 µM |
| O=c1[nH]cnc2c1ncn2[C@H]1CC[C@@H](CCP(=O)(O)O)O1 | IIIB | CEM | - | p24 | EC50 | >200 µM |
| COc1ccccc1C(O)c1cnc(Nc2ccc(C#N)cc2)nc1Nc1c(C)cc(/C=C/C#N)cc1C | PSI (IIIB) | MT-4 | - | - | EC50 | 166 µM |
| O=C(O)c1ccccc1SSc1ccccc1C(=O)O | - | CEM | - | XTT | EC50 | >100 µM |
| CC(=O)O[C@@H]1CC[C@]2(CO2)[C@]2(C)[C@@H](OC(C)=O)[C@H](OC(C)=O)[C@]3(C)O[C@]4(COC(=O)C4)[C@@H](OC(=O)c4ccccc4)C[C@]3(C)[C@@H]12 | IIIB | C8166 | - | MTT / ELISA | EC50 | 79.17 µg/mL |
| C=C1[C@H](CO)[C@H]1Cn1cnc2nc(N)nc(Cl)c21 | - | - | - | - | EC50 | >100 µM |
| CC(C)CCC[C@@H](C)[C@H]1CC[C@H]2[C@@H]3CC[C@H]4C[C@@H](CCC=C(c5cc(Cl)c(O)c(C(=O)O)c5)c5cc(Cl)c(O)c(C(=O)O)c5)CC[C@]4(C)[C@H]3CC[C@]12C | IIIB | MT-4 | - | cytopathic effect / MTT | EC50 | 1.84 µM |
| CCOC(=O)CCNC(=O)c1ccccc1SSc1ccccc1C(=O)NCCC(=O)OCC | - | CEM | - | XTT | EC50 | >40 µM |
| CCC(O)c1cnc(Nc2ccc(C#N)cc2)nc1Nc1c(C)cc(/C=C/C#N)cc1C | L100I + K103N | MT-4 | - | - | EC50 | 0.0309 µM |
| NC[C@H]1O[C@@H](n2cnc3c(N)ncnc32)C[C@H]1N | IIIB | MT-4 | - | cytopathic effect / trypan blue | EC50 | >500 µg/mL |
| Nc1ccn([C@H]2CC[C@@H](CCP(=O)(O)O)O2)c(=O)n1 | IIIB | CEM | - | p24 | EC50 | 150 µM |
| Cc1cn([C@H]2C[C@H](N=[N+]=[N-])[C@@H](CO)O2)c(=O)[nH]c1=O | IIIB | MT-4 | - | MTT | EC50 | 0.0019 µM |
| O=C(Nc1ccc(O)cc1)c1ccccc1SSc1ccccc1C(=O)Nc1ccc(O)cc1 | - | CEM | - | XTT | EC50 | >33 µM |
| CC1OC(=O)c2ccccc2C1(Cl)c1ccccc1 | IIIB | TZM-bl | - | luciferase | EC50 | 29.33 µM |
| Cc1cc(/C=C/C#N)cc(C)c1Nc1nc(Nc2ccc(C#N)cc2)ncc1C(O)c1cncs1 | PSI (IIIB) | MT-4 | - | - | EC50 | 316 µM |
| Cn1cc(NC(=O)Nc2cc(C(=O)Nc3cc(C(=O)Nc4cc(C(=O)Nc5cc(P(=O)(O)O)c6cccc(P(=O)(O)O)c6c5)n(C)c4)n(C)c3)n(C)c2)cc1C(=O)Nc1cc(C(=O)Nc2cc(C(=O)Nc3cc(P(=O)(O)O)c4cccc(P(=O)(O)O)c4c3)n(C)c2)n(C)c1 | RF | CEM + CEM-SS | - | cytopathic effect / XTT | EC50 | 0.3 µM |
| Nc1ccn([C@@H]2CS[C@H](CO)O2)c(=O)n1 | IIIB | MT-4 | - | MTT | EC50 | 0.51 µM |
| CC[C@H](C)[C@H](NC(=O)c1ccccc1SSc1ccccc1C(=O)N[C@H](C(=O)O)[C@@H](C)CC)C(=O)O | IIIB | MT-2 | - | XTT | EC50 | 6 µM |
| CCOC(=O)C(=O)N1CCC2(C1)OCCn1c2nc(C(=O)NCc2ccc(F)cc2)c(O)c1=O | NL4-3 | MT-2 | - | luciferase / reporter gene | EC50 | 0.01–0.1 µM |
| NC[C@@H]1C[C@@H](O)[C@H](n2cnc3c(N)ncnc32)O1 | IIIB | MT-4 | - | cytopathic effect / trypan blue | EC50 | >500 µg/mL |
| Cc1ccnc2c1NC(=O)c1cccnc1N2C1CC1 | IIIB | MT-4 | - | MTT | EC50 | 0.05 µM |
| Cc1cc(S(N)(=O)=O)ccc1NC(=O)COc1ccc(Cl)cc1C(=O)c1cc(F)cc(C(F)(F)F)c1 | IIIB | MT-4 | RT-Y181C | - | EC50 | 0.0014 µM |
| CCCCCCCCCC(O)CC(=O)O | - | HeLa37 | - | antigen | EC50 | 27.6 µg/mL |
| C=C1[C@H](CO)[C@H]1Cn1cnc2c(Cl)ncnc21 | - | - | - | - | EC50 | >100 µM |

4 of the rows above, restated:

Cc1ccc(S(=O)(=O)N2CCC3(CC2)OCCn2c3nc(C(=O)NCc3ccc(F)cc3-n3ncnc3C)c(O)c2=O)cc1 ; strain: NL4-3 ; cells: MT-2 ; method: luciferase / reporter gene ; endpoint: EC50 ; value: 0.001–0.01 µM
CN[C@H](CC(C)C)C(=O)N[C@H]1C(=O)N[C@@H](CC(N)=O)C(=O)N[C@H]2C(=O)N[C@H]3C(=O)N[C@H](C(=O)N[C@H](C(=O)O)c4cc(O)cc(O)c4-c4cc3ccc4O)[C@H](O)c3ccc(c(Cl)c3)Oc3cc2cc(c3O[C@@H]2O[C@H](CO)[C@@H](O)[C@H](O)[C@H]2O[C@H]2C[C@](C)(N)[C@H](O)[C@H](C)O2)Oc2ccc(cc2Cl)[C@H]1O ; cells: CEM ; method: syncytia ; endpoint: EC50 ; value: 12 µM
CC(=O)O[C@@H]1CC[C@]2(CO2)[C@]2(C)[C@@H](OC(C)=O)[C@H](OC(C)=O)[C@]3(C)O[C@]4(COC(=O)C4)[C@@H](OC(=O)c4ccccc4)C[C@]3(C)[C@@H]12 ; strain: IIIB ; cells: C8166 ; method: MTT / ELISA ; endpoint: EC50 ; value: 79.17 µg/mL
O=c1[nH]cnc2c1ncn2[C@H]1CC[C@@H](CCP(=O)(O)O)O1 ; strain: IIIB ; cells: CEM ; method: p24 ; endpoint: EC50 ; value: >200 µM

ECn is the concentration giving n% inhibition of infection, replication or growth. Blank or dashed fields: not listed here. a–b is a range or a potency band.